Reference: patent publication US20250382355A1 (Merck Sharp & Dohme, published 2025)

B1: 6A1 VHH-Fc (Fc fusion)
chain: QVQLVESGGGLVQAGGSLRLSCTASGNIFSVNVMGWHRQAPGKRRELVAALTNDGRRNYADSVKGRFTISRDNAKNTIYLEMNSLKPEDTAVYYCGTGTLESGFNSWGQGLQVTVSS
B2: 5A6 VHH-Fc (Fc fusion)
chain: QVQLVESGGGLAQAGGSLRLSCATSGLTFSMSAMGWFRQAPGNEREFVGVINWNGGSSRYADSVRGRFTISRDNAKNTVYLQMNSLKPEDTGVYYCAADALNIGTGEVNPRLYDYWGQGTQVMVSS
B3: 16H7 VHH-Fc (Fc fusion)
chain: QVQLVESGGGLVQAGGSLRLSCAASGRAFSKDTMGWFRQAPGKEREFVAVISASGDSTYYADFVKGRFTISRDNAKNTEYLQMNSLKPEDTAVYHCAADGARAYYSINAHRYSWAYNYWGQGTQVTVSS
B4: 11F5 VHH-Fc (Fc fusion)
chain: QVQLVESGGGAVQAGDSLRLSCTASGRTFSTYAVGWFRQAPGKERELLAAITGSGRNPYYPDSLKGRFTISREYAKLPVYLQMNSLKPEDTAVYYCAARRGAIATMPLDYDHWGQGTQVTVSS
B5: 5D7 VHH-Fc (Fc fusion)
chain: QVQLVESGGGLVQAGGSLRLSCAASGRTGSRYIMGWFRQAPGKEREFVAAINWRGDSTYYADSVKGRFTIARDNAKNTAYLQMNSLKPEDTAVYYCVADRGESYYYTRSTEYTYWGQGTQVTVSS
B6: 11F8 VHH-Fc (Fc fusion)
chain: QVQLVESGGGLVQAGGSLRLSCAASGRTVGYYAVGWFRQAPGKERDFVAAISWSGRNTNYADSVTGRFTIFRDNAKNTVDLQMNSLKPEDTAVYYCAADYWNYGSGSEVPNNYDTWGQGTQVTVSS
B7: 9B2 VHH-Fc (Fc fusion)
chain: QVQLVESGGGLVQPGGSLRLSCAASGFTLDNYAIGWFRQAPGKEREGVSCISSSDGDTQYADSVKGRFTISRDNAKNTVYLQMNSLKPEDTAVYYCAVEKVYARSWFFHLCSELDFGSWGQGTQVTVSS
B8: 1A11 VHH-Fc (Fc fusion)
chain: QVQLVESGGGLVQAGGSLRLSCEVSGSIYSINSMGWYRQAPGKQRELVAGIVSDGRINYADSVKGRFTISRAKNTVYLQMNSLKPEDTAVYYCAADRAFVYAGDYDYLGQGTQVTVSS
B9: 20D11 VHH-Fc (Fc fusion)
chain: QVQLVESGGGLVQAGGSLRLSCAASGRTSSIYSVGWFRQAPGKERELVAGITWSGGTTYYSDSVKGRFTISRDNAKNTVNLQMNNLKPEDTAIYYCAVDRYSMTMSARDYDYWGQGTQVTVSS
B10: 5G11 VHH-Fc (Fc fusion)
chain: B9 chain with S29F, S33A, E46D, L47F, N80Y, R100T, M105L, D109S
B11: 14F3 VHH-Fc (Fc fusion)
chain: B9 chain with S33G, G50L, R72K, N80F, R100T, D111E
B12: 3D4 VHH-Fc (Fc fusion)
chain: QVQLVESGGGLVQPGGSLRLSCAASGFTLDLNSIGWFRQAPGKEREGVSCISPSGSRMHYADSVKGRFTISRDNAKNTVYLQMNSLKPEDTAVYYCATGSPSYHYCSMYGLEYDSWGQGTQVTVPS
B13: 19C10 VHH-Fc (Fc fusion)
chain: B12 chain with G55A, R57S, M58T, S100T, S115D, P125S
B14: 15H7 VHH-Fc (Fc fusion)
chain: QVQLVESGGRLVQAGGSLRLSCAAPGRTFRNLTLGWFRQAPGKEREFVASTSWPDDEMTYYTDSVKGRFTISRDNAKNTVYLQMNSLKPEDTAVYYCAAASWSGRSTLSYDYDYWGQGTQVTVST
B15: 13C8 VHH-Fc (Fc fusion)
chain: QVQLVESGGGLVQAGGSLRLSCAASGRTVNKYMTGWFRQTPGKEREFVASIDWSSTTTHYANSVKGRFTISRDKVKNTVYLQMNGLKPEDTAVYYCAAHQDSSYGYTILPIDYDSWGQGTQVTVSS
B16: 8E9 VHH-Fc (Fc fusion)
chain: QVQLVESGGGLVEAGGSLRLSCVASGSSSSINAMGWYRQAPGKQRELVASISHDGETKYANSVKGRFTISRGNAKNTIYLQMNSLKPEDTAVYYCVGDVAWVVVAGEYDYWGQGTQVTVSS
B17: 19E10 VHH-Fc (Fc fusion)
chain: QVQLVESGGGLVQPGGSLRLSCVASGSTISINSMGWYRQAPGKAREMVATITNDGPIKYADPVKGRFTISRDNPKNTVYLQMNSLKPEDTAVYYCVADRAYWLAGEWEYWGQGTQVTVSS
B18: 1E4 VHH-Fc (Fc fusion)
chain: QVLLVESGGGLVQAGGLLRLACSASGRTFTENVMGWFRQAPGKEREFVAAINWNTGSTYYSDSRKGRFTISKDNAKNTMFLQINNLKPEDTAVYYCGGTSSSYYYIGEFIPDYWGQGTQVTVSS
B19: 15H1 VHH-Fc (Fc fusion)
chain: QVQLVESGGGLAQAGGSLRLSCASSGLIFSGSAMGWFRQAPGKEREFVGVISWNGRTTYADSVKGRFTISRDDAVNMVWLQMNNLKPEDTAVYYCAADHLNYGSGDVNPRTYDYWGQGTQVTVSS
B20: 10B8 VHH-Fc (Fc fusion)
chain: QVQLVESGGGLVQPGGSLRLSCAASGITLDYYAIAWFRQAPGKEREGVSCFCSSDGDIRYADSVKGRFTISRDNAKNTVYLQMNSLKPEDTAVYYCATERVYSSTWFFHRYSELDFGSWGRGTQVTVSS
B21: 7A9 VHH-Fc (Fc fusion)
chain: QVQLVESGGGLVQAGGSLRLSCSASGGTASRSAMGWFRQAPGKEREFVAGISRRNSGSTYVADSYEDSVKGRFTISRDNAKNTIYLQMNSLKPEDTAVYYCAAEPTLGWYVPRRSVEYEYWGQGTQVTVSS
B22: 19B8 VHH-Fc (Fc fusion)
chain: QVQLVESGGGLVQAGGSLRLSCAASGRTFTNYAMGWFRQAPGKEREFVAAISWSGGGTNYADSVKGRFTISRDNAKNTVYLQMNSPKPEDTAVYYCATTLGYYGSSSRLYEYWGQGTQVTVSS

Assays:
Test in all cases: ELISA
[1] = molecular target: T1, SARS-CoV-2 spike protein, Delta B.1.617.2 variant (Acro Biosystems SPN-C52He) (SARS-CoV-2)
T1 construct: bought

[2] = molecular target: SARS-CoV-2 spike protein, Alpha B.1.1.7 variant (Acro Biosystems SPN-C52H6) (SARS-CoV-2)
[3] = molecular target: T2, SARS-CoV-2 spike protein, Omicron BA1.1 (Acro Biosystems SPN-C52Hz) (SARS-CoV-2)
T2 construct: bought

[4] = molecular target: T3, SARS-CoV-2 spike protein, Beta B.1.351 variant (Acro Biosystems SPN-C52Hk) (SARS-CoV-2)
T3 construct: bought

[5] = molecular target: T4, SARS-CoV-2 spike protein, Gamma P.1 variant (Acro Biosystems SPN-C52Hg) (SARS-CoV-2)
T4 construct: bought

Row | Binder | EC50 [1] [pM] | EC50 [2] [pM] | EC50 [3] [pM] | EC50 [4] [pM] | EC50 [5] [pM]
1 | B1 | 270 | 200 | 200 | 200 | 180
2 | B2 | 80 | 110 |  | 150 | 100
3 | B3 | 620 | 60 | 30 | 180 | 40
4 | B4 | 50 | 50 | 40 | 60 | 50
5 | B5 | 60 | 740 | 220 | 220 | 90
6 | B6 | 110 | 80 |  | 210 | 140
7 | B7 | 60 | 60 | 180 | 70 | 50
8 | B8 | 200 | 40 | 640 | 620 | 240
9 | B9 | 690 | 30 | 530 | 60 | 560
10 | B10 | 360 | 220 | 260 | 230 | 210
11 | B11 | 30 | 30 | 30 | 80 | 30
12 | B12 | 80 | 110 |  | 90 | 90
13 | B13 | 100 | 180 |  | 40 | 140
14 | B14 | 60 | 50 |  | 70 | 60
15 | B15 | 180 |  |  | 240 | 230
16 | B16 | 60 | 60 | 600 | 100 | 150
17 | B17 | 40 | 60 | 90 | 50 | 30
18 | B18 | 60 | 620 |  | 30 | 30
19 | B19 | 100 | 50 |  | 100 | 90
20 | B20 | 850 | 50 | 2810 | 30 | 1110
21 | B21 | 170 | 130 | 190 | 130 | 120
22 | B22 | 80 | 630 | 40 | 260 | 170

Positions count from the first letter of the chain named.
